Values from PubChem BioAssay AID504761 (Drosophila RNAi Screening Center, 2011)

- Assay: 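Fly genes whose silencing reduces dengue virus type 2 infection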 (primary screen)
- Cell system: D.Mel-2 cells from Drosophila
- Reagents: long dsRNA against Drosophila genes
- Conditions: infection with dengue virus type 2; dose and infection time not stated
- Detection: 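Cells stained for dengue envelope protein and imaged; percent of infected cells per well on duplicate plates, ranked by infection, with stained nuclei counted for cell number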
- Direction: infection score: higher = more virus-infected cells; cell count: higher = more cells in the well
- Call rule: 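Very low infection ranking in both replicate wells (chance probability at most 0.065), then a retest showing infection dropped 1.5-fold or more at p below 0.05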
- Calls: active = confirmed: knock-down lowers infection; inactive = not picked or not confirmed
The screen tested about 22,000 reagents; this is an unselected part of those that have a named target and a result. In the full data, 116 (0.52%) got an active call. 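Calls depend on retest data that are not deposited; infection was ranked per plate without normalising between plates; the unit of the infection score is not given.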 Raw values are not corrected between plates. Names joined by + are all predicted targets of the reagent. Not all columns of the deposit are shown. The record does not give: the amount of reagent, the time to read-out.

shu [DRSC04484] — infection score, replicate 1: 28.4; cell count, replicate 1: 6651; outcome: inactive
shu [DRSC27390] — infection score, replicate 1: 21.8; cell count, replicate 1: 5277; outcome: inactive
CG14721 [DRSC29246] — infection score, replicate 1: 21.4; cell count, replicate 1: 5672; outcome: inactive
Ras64B [DRSC08689] — infection score, replicate 1: 4.23; cell count, replicate 1: 6130; outcome: inactive
Ras64B [DRSC26766] — infection score, replicate 1: 4.03; cell count, replicate 1: 6901; outcome: inactive
mei-P26 [DRSC23049] — infection score, replicate 1: 4.28; cell count, replicate 1: 6150; outcome: inactive
CG14860 [DRSC14983] — infection score, replicate 1: 15.1; cell count, replicate 1: 5194; outcome: inactive
CG14860 [DRSC28932] — infection score, replicate 1: 14.1; cell count, replicate 1: 4165; outcome: inactive
CG14442 [DRSC25040] — infection score, replicate 1: 2.39; cell count, replicate 1: 6446; outcome: inactive

Reformatted: results already given
gene knocked down | DRSC id | infection score, replicate 1 | cell count, replicate 1 | outcome
shu | DRSC27390 | 21.8 | 5277 | inactive
CG14721 | DRSC29246 | 21.4 | 5672 | inactive

Additional records:
CG12910 [DRSC06225] — infection score, replicate 1: 6.69; cell count, replicate 1: 6365; outcome: inactive
CG14929 + CG4970 + CG14930 [DRSC02412] — infection score, replicate 1: 7.73; cell count, replicate 1: 6517; outcome: inactive
CG11588 [DRSC09145] — infection score, replicate 1: 0.28; cell count, replicate 1: 6823; outcome: inactive
CG11588 [DRSC09846] — infection score, replicate 1: 3.24; cell count, replicate 1: 5860; outcome: inactive
Acox57D-p [DRSC04560] — infection score, replicate 1: 2.36; cell count, replicate 1: 6444; outcome: inactive
